A mixed list of measured activities; the numbers were collected in NIAID ChemDB.

Shared fields: tests in culture; agent: Candida albicans; read by: broth dilution; measure: MIC

Conditions beyond the fields shown may differ between rows. An empty or dashed field is not shown.

SMILES,strain or isolate,setting,value
CC1=CC2C(N)=NC(N)=NC2C=C1c1ccc(N(C)C)c(C#N)c1,ATCC 36082,-,>64 µg/mL
CCOC(=O)CC#N,-,-,14000 µM
COc1cc2occ(-c3ccc(O)cc3)c(=O)c2c(OC)c1CC=C(C)C,ATCC 2091,-,12.5 µg/mL
Cc1ccc(N2NOC(=O)C2S(=O)(=O)Nc2nc3ccc(F)cc3s2)cc1,MTCC 227,-,250 µg/mL
Cc1ccc2nc(Sc3ccc(Cl)cc3)c(C3C(C#N)=C(N)Oc4cc(C)oc(=O)c43)cc2c1,MTCC 227,-,200 µg/mL
C[C@@H]1O[C@@H](O[C@@H]2[C@@H](O)[C@H](OCCc3ccc(O)c(O)c3)O[C@@H](CO)[C@H]2OC(=O)/C=C/c2ccc(O)c(O)c2)[C@H](O)[C@H](O)[C@H]1O,ATCC 10231,-,250 µg/mL
Cc1ccc(N2NOC(=O)C2S(=O)(=O)Nc2nc3ccc(C)cc3s2)cc1,MTCC 227,-,250 µg/mL
NNC(=O)c1ccccc1,MTCC 227,-,1000 µg/mL
O=C1NC(=S)SC1C(Sc1ccccc1)c1ccc(Br)cc1,ATCC 2091,-,32 µg/mL
C[C@@H]1[C@H](O)[C@@H](C)/C=C/C=C/CC/C=C/C=C/C=C/C=C/C(O[C@H]2O[C@H](C)[C@@H](O)[C@H](N)[C@@H]2O)CC2O[C@](O)(CC(O)C(O)CCC(O)CC(O)CC(O)CC(=O)O[C@H]1C)CC(O)C2C(=O)O,MTCC 227,-,100 µg/mL
C[C@H]1[C@H](O)[C@@H](C)/C=C/C=C/C=C/C=C/C=C/C=C/C=C/[C@H](O[C@@H]2O[C@H](C)[C@@H](O)[C@H](N)[C@@H]2O)C[C@@H]2O[C@](O)(C[C@@H](O)C[C@@H](O)CC[C@H](O)[C@@H](O)C[C@@H](O)CC(=O)O[C@H]1C)C[C@H](O)[C@H]2C(=O)O,CBS 562,-,0.038 µg/mL
COc1cc(C(=O)OCCc2ccc(O)cc2)ccc1O,ATCC 10231,-,250 µg/mL
O=C(CCc1ccc(O)c(O)c1)OCc1ccc([N+](=O)[O-])o1,ATCC 10231,"4 h, biofilm",256 µg/mL
CC1(C)C=C2C3CCC4[C@@]5(C)CCC(=O)C(C)(C)C5CC[C@@]4(C)[C@]3(C)CC[C@@]2(C(=O)O)CC1,ATCC 10231,-,>200 µg/mL
Cc1ccc(N2NOC(=O)C2S(=O)(=O)Nc2ccc(-n3c(-c4cccc(Cl)c4)nc4ccccc4c3=O)cc2)cc1,MTCC 227,-,1000 µg/mL
COc1ccc(C(OC)C(O)c2cc(OC)c(OC)c(OC)c2)cc1,ATCC 2091,-,50 µg/mL
COC(=O)[C@]12CCC(C)(C)C=C1C1CCC3[C@@]4(C)CCC(=O)C(C)(C)C4CC[C@@]3(C)[C@]1(C)CC2,ATCC 10231,-,200 µg/mL
N#CSCc1ccccc1,-,-,1250 µg/mL
COc1ccc2nc(Sc3ccccc3)c(C3C(C#N)=C(N)Oc4c3c(=O)oc3ccc(C)cc43)cc2c1,MTCC 227,-,1000 µg/mL
CCOC(=O)C1=C(N)N(c2nc(-c3ccccc3)cs2)C2=C(C(=O)CCC2)C1c1cc2cc(OC)ccc2nc1F,MTCC 227,-,100 µg/mL
O=C1NC(=S)S/C1=C\c1ccco1,ATCC 2091,-,64 µg/mL
N#CC1=C(N)N(c2nc(-c3ccc(O)cc3)cs2)C2=C(C(=O)CCC2)C1c1cc2cc(Cl)ccc2nc1F,MTCC 227,-,500 µg/mL
Cc1ccc2nc(Sc3ccc(Cl)cc3)c(C3C(C#N)=C(N)Oc4c3c(=O)oc3ccc(C)cc43)cc2c1,MTCC 227,-,500 µg/mL
CCCCCC1CC(O)CC(=O)O1,ATCC 10231,-,93.7 µg/mL
CCN(CC)N1C(=O)C(C(Sc2ccccc2)c2ccc(Cl)cc2)SC1=S,ATCC 2091,-,32 µg/mL
COc1cccc(CSC#N)c1,-,-,600 µg/mL
Cc1ccc(Sc2nc3ccc(C)cc3cc2C2C(C#N)=C(N)Oc3c2c(=O)oc2ccccc32)cc1,MTCC 227,-,500 µg/mL
N#CC1=C(N)N(c2nc(-c3ccccc3)cs2)C2=C(C(=O)CCC2)C1c1cc2ccccc2nc1F,MTCC 227,-,500 µg/mL
CC(C)N(C(C)C)N1C(=O)/C(=C/c2ccccc2)SC1=S,ATCC 2091,-,64 µg/mL
Cc1ccc(N2NOC(=O)C2S(=O)(=O)Nc2ccc(-n3c(-c4c(Cl)cccc4[N+](=O)[O-])nc4ccccc4c3=O)cc2)cc1,MTCC 227,-,1000 µg/mL
N#CC1=C(N)N(c2nc(-c3ccc(Cl)cc3)cs2)C2=C(C(=O)CCC2)C1c1cc2cc(Cl)ccc2nc1F,MTCC 227,-,500 µg/mL
OC(Cn1cncn1)(Cn1cncn1)c1ccc(F)cc1F,YL 346,-,>512 µg/mL
COC(=O)c1cc(O)c(O)c(O)c1,ATCC 10231,-,100 µg/mL
CC1=CC2C(N)=NC(N)=NC2C=C1c1ccc2c(N)nc(N)nc2c1,ATCC 36082,-,>64 µg/mL
S=C=NCc1ccccc1,-,-,30 µg/mL
COc1ccc2nc(Sc3ccc(Cl)cc3)c(C3C(C#N)=C(N)Oc4c3c(=O)oc3ccc(C)cc43)cc2c1,MTCC 227,-,500 µg/mL
CC(=Nc1cccc(Br)c1)c1cc(C(C)=Nc2cccc(Br)c2)c(O)cc1O,MTCC 227,-,1000 µg/mL
N#CC1=C(N)Oc2c(c(=O)oc3ccccc23)C1c1cc2ccccc2nc1Sc1ccc(Cl)cc1,MTCC 227,-,>1000 µg/mL
Cc1ccc(N2NOC(=O)C2S(=O)(=O)Nc2nc3ccc(Cl)cc3s2)cc1,MTCC 227,-,1000 µg/mL
NC(=NCCCCCCN=C(N)/N=C(\N)Nc1ccc(Cl)cc1)/N=C(\N)Nc1ccc(Cl)cc1,ATCC 10231,-,200 µg/mL
COc1ccc2nc(Sc3ccc(C)cc3)c(C3C(C#N)=C(N)Oc4c3c(=O)oc3ccc(C)cc43)cc2c1,MTCC 227,-,>1000 µg/mL
COc1cccc(CN=C=S)c1,-,-,150 µg/mL
Cc1ccc2oc(=O)c3c(c2c1)OC(N)=C(C#N)C3c1cc2ccccc2nc1Sc1ccc(Cl)cc1,MTCC 227,-,1000 µg/mL
CCN(CC)N1C(=O)C(C(Sc2ccccc2)c2ccc(Br)cc2)SC1=S,ATCC 2091,-,64 µg/mL
COc1ccc2nc(Sc3ccc(Cl)cc3)c(C3C(C#N)=C(N)Oc4c3c(=O)oc3ccccc43)cc2c1,MTCC 227,-,500 µg/mL
CCOC(=O)C1=C(N)N(c2nc(-c3ccc(Cl)cc3)cs2)C2=C(C(=O)CCC2)C1c1cc2cc(OC)ccc2nc1F,MTCC 227,-,500 µg/mL

The first 7 rows once more:

{"SMILES": "CC1=CC2C(N)=NC(N)=NC2C=C1c1ccc(N(C)C)c(C#N)c1", "strain or isolate": "ATCC 36082", "value": ">64 µg/mL"}
{"SMILES": "CCOC(=O)CC#N", "value": "14000 µM"}
{"SMILES": "COc1cc2occ(-c3ccc(O)cc3)c(=O)c2c(OC)c1CC=C(C)C", "strain or isolate": "ATCC 2091", "value": "12.5 µg/mL"}
{"SMILES": "Cc1ccc(N2NOC(=O)C2S(=O)(=O)Nc2nc3ccc(F)cc3s2)cc1", "strain or isolate": "MTCC 227", "value": "250 µg/mL"}
{"SMILES": "Cc1ccc2nc(Sc3ccc(Cl)cc3)c(C3C(C#N)=C(N)Oc4cc(C)oc(=O)c43)cc2c1", "strain or isolate": "MTCC 227", "value": "200 µg/mL"}
{"SMILES": "C[C@@H]1O[C@@H](O[C@@H]2[C@@H](O)[C@H](OCCc3ccc(O)c(O)c3)O[C@@H](CO)[C@H]2OC(=O)/C=C/c2ccc(O)c(O)c2)[C@H](O)[C@H](O)[C@H]1O", "strain or isolate": "ATCC 10231", "value": "250 µg/mL"}
{"SMILES": "Cc1ccc(N2NOC(=O)C2S(=O)(=O)Nc2nc3ccc(C)cc3s2)cc1", "strain or isolate": "MTCC 227", "value": "250 µg/mL"}